Experimental findings from the supplement of paper PMC3578754 are described below.

Fold change is the IC50 on the isolate divided by the IC50 on a reference virus; 1 = unchanged, higher = more resistant. Changes are given against the subtype B consensus. No active / inactive call. The values were gathered from many studies (numbered anew) with different assays, which the source does not name. Most viruses are clinical isolates; some are laboratory strains or clones with known resistance changes. Isolates with mixed residues are left out; stretches that were not sequenced show no change. Round top values that many isolates share are read here as limits; other very high values and 0.1 may be limits too. The protease changes I3V and N37S, insertions and deletions cannot be read from the source.

Common to all, as to experiment: fold change of IC50 against reference virus; higher = more resistant; Cell-culture drug susceptibility tests of virus bearing the protease of each isolate, gathered from many studies.
Compound in experiment [1]: CC(C)(C)NC(=O)[C@@H]1CN(Cc2cccnc2)CCN1C[C@@H](O)C[C@@H](Cc1ccccc1)C(=O)N[C@H]1c2ccccc2C[C@H]1O [indinavir]
Compound in experiment [2]: CC(C)(C)NC(=O)[C@@H]1C[C@@H]2CCCC[C@@H]2CN1C[C@@H](O)[C@H](Cc1ccccc1)NC(=O)[C@H](CC(N)=O)NC(=O)c1ccc2ccccc2n1 [saquinavir]
Compound in experiment [3]: CC(C)c1nc(CN(C)C(=O)N[C@H](C(=O)N[C@@H](Cc2ccccc2)C[C@H](O)[C@H](Cc2ccccc2)NC(=O)OCc2cncs2)C(C)C)cs1 [ritonavir]
Compound in experiment [4]: COC(=O)N[C@H](C(=O)N[C@@H](Cc1ccccc1)[C@@H](O)CN(Cc1ccc(-c2ccccn2)cc1)NC(=O)[C@@H](NC(=O)OC)C(C)(C)C)C(C)(C)C [atazanavir]
Compound in experiment [5]: Cc1c(O)cccc1C(=O)N[C@@H](CSc1ccccc1)[C@H](O)CN1C[C@H]2CCCC[C@H]2C[C@H]1C(=O)NC(C)(C)C [nelfinavir]
Compound in experiment [6]: Cc1cccc(C)c1OCC(=O)N[C@@H](Cc1ccccc1)[C@@H](O)C[C@H](Cc1ccccc1)NC(=O)[C@H](C(C)C)N1CCCNC1=O [lopinavir]

As to “HIV-1 isolate 1209 (protease changes: K20R M36I R41K I54V D60E I62V L63P A71V V82A I93L, study 21)”, the “fold change of IC50 against reference virus” value (“fold change of IC50” below) in experiment [1] stood at 5.3; in experiment [2], 1.6; in experiment [3] it was 23; in experiment [4] it was 2.3; in experiment [5] it was 7.2; in experiment [6], 6.3.
For the test system “HIV-1 isolate 117 (protease changes: L33I N37T P39S R41K D60E L63P I64V H69Y, study 15)”, the “fold change of IC50” value in experiment [1] was determined as 0.9; in experiment [2] it was 0.6; in experiment [3] it was 0.7; in experiment [4], 0.9; in experiment [5], 0.7; in experiment [6], 0.6.
“HIV-1 isolate 958 (protease changes: L10I L24I M46I L63P G73T L90M, study 138)”: the “fold change of IC50” value was determined as 24.5 in experiment [1]; 16.2 in experiment [2]; 9.3 in experiment [3]; 10.8 in experiment [4]; 56 in experiment [5]; 7.5 in experiment [6].
Take “HIV-1 isolate 73 (protease changes: L10I T12P K14R L24I I54V L63P A71I V77I V82A I84V, study 78)”: the “fold change of IC50” value in experiment [1] was 6.6; in experiment [2] it was 24; in experiment [3], 63; in experiment [4], 7.1; in experiment [5], 9.9; in experiment [6], 13.
For “HIV-1 isolate 128 (protease changes: K43R R57K I62V L63P A71T I72V V77I I93L, study 83)”, the “fold change of IC50” value in experiment [1] worked out at 1; in experiment [2], 0.7; in experiment [3], 0.8; in experiment [4] it was 0.9; in experiment [5], 1.4; in experiment [6], 0.7.
Turning to “HIV-1 isolate 1615 (protease changes: K20I N37E M46L L63S A71V T74S V77I I93L, study 83)”, the “fold change of IC50” value in experiment [1] stood at 2.4; in experiment [2] it was 2.1; in experiment [3], 1.8; in experiment [4] it was 2.4; in experiment [5], 12; in experiment [6], 1.4.
As for “HIV-1 isolate 459 (protease changes: L10I K20R E35D M36I N37D R57K L63P A71V G73S I84V L90M I93L, study 64)”, the “fold change of IC50” value in experiment [1] stood at 19; in experiment [2] it was 123; in experiment [3] it was 51; in experiment [4] it was 31; in experiment [5], 25; in experiment [6], 8.3.
With “HIV-1 isolate 1611 (protease changes: L10I I13V E35D M36I R41K I50V L63P A71V, study 117)”, the “fold change of IC50” value in experiment [1] came to 2.5; in experiment [2], 4.5; in experiment [3], 12.6; in experiment [4], 2.1; in experiment [5], 7; in experiment [6], 9.4.
“HIV-1 isolate 333 (protease changes: none, study 15)”: the “fold change of IC50” value amounted to 1 in experiment [1]; 0.8 in experiment [2]; 1.1 in experiment [3]; 1 in experiment [4]; 1 in experiment [5]; 0.9 in experiment [6].
For the test system “HIV-1 isolate 1 (protease changes: L10I I13V K14R N37D L63P A71T L90M, study 15)”, the “fold change of IC50” value came out at 1.8 in experiment [1]; 3.7 in experiment [2]; 3.4 in experiment [3]; 1.4 in experiment [4]; 3.4 in experiment [5]; 1 in experiment [6].
As to “HIV-1 isolate 35 (protease changes: L10I T12P L19V K45R I62V L63P C67L H69Q G73T V82A L90M, study 15)”, the “fold change of IC50” value in experiment [1] came out at 9; in experiment [2] it was 1.7; in experiment [3], 11; in experiment [4] it was 5.5; in experiment [5] it was 6.4; in experiment [6], 2.6.
Take “HIV-1 isolate 532 (protease changes: M36I R41K D60E I62V L63P A71V G73S L90M I93L, study 15)”: the “fold change of IC50” value is 2.8 in experiment [1]; 3.2 in experiment [2]; 5 in experiment [3]; 3.1 in experiment [4]; 5.5 in experiment [5]; 1.2 in experiment [6].
For “HIV-1 isolate 67 (protease changes: L10Y K20I E35D M36I N37D I54L R57K L63P I66V A71V G73S I84V I85V L90M, study 15)”, the “fold change of IC50” value in experiment [1] came out at 24; in experiment [2], 300; in experiment [3] it was 52; in experiment [4], 32; in experiment [5], 91; in experiment [6], 8.5.
For the test system “HIV-1 isolate 1410 (protease changes: L10F I13V L23I L33F I54V R57K Q58E D60E L63P A71V L76V V82A I93L, study 64)”, the “fold change of IC50” value in experiment [1] was 46; in experiment [2], 7.2; in experiment [3] it was at least 800; in experiment [4], 21; in experiment [5], 75; in experiment [6], 280.
“HIV-1 isolate 132 (protease changes: L10V D30N E35D M36V L63P A71V N88D I93L, study 64)”: the “fold change of IC50” value was 3.1 in experiment [1]; 4 in experiment [2]; 1.8 in experiment [3]; 7 in experiment [4]; 71 in experiment [5]; 2.6 in experiment [6].
Take “HIV-1 isolate 406 (protease changes: L10I V11L I13V I15V K20R V32I L33F E35D M36I K43T M46I I47V F53L I54M R57K L63P G73S V77I V82A, study 15)”: the “fold change of IC50” value was 31 in experiment [1]; 11 in experiment [2]; 400 in experiment [3]; 70 in experiment [4]; 51 in experiment [5]; 306 in experiment [6].
In the case of “HIV-1 isolate 1246 (protease changes: I13V I15V Q18I L19I D30N L33F D60E L63P V77I N88D L90M I93L, study 83)”, the “fold change of IC50” value in experiment [1] came out at 3.5; in experiment [2], 16; in experiment [3] it was 8.4; in experiment [4], 4.8; in experiment [5], 98; in experiment [6], 2.6.
On to “HIV-1 isolate 111 (protease changes: V32I M46I K55R L63P A71V V82A L90M, study 15)”, for which the “fold change of IC50” value in experiment [1] was found to be 9.9; in experiment [2] it was 1.3; in experiment [3], 18; in experiment [4], 7.3; in experiment [5] it was 11; in experiment [6] it was 4.9.
Regarding “HIV-1 isolate 1188 (protease changes: L10I K20I M36I I54V L63P A71V V82T L90M, study 138)”, the “fold change of IC50” value in experiment [1] is 31.4; in experiment [2], 21.4; in experiment [3], 73.5; in experiment [4] it was 27.4; in experiment [5], 43.6; in experiment [6] it was 13.2.
Consider “HIV-1 isolate 271 (protease changes: T12S I15V L19I K20R E35D M36I R41K H69K L89M I93L, study 41)”, for which the “fold change of IC50” value in experiment [1] came to 0.7; in experiment [2] it was 0.6; in experiment [3], 1.1; in experiment [4], 0.8; in experiment [5], 0.8; in experiment [6], 0.6.
